Laboratory results as given in the supplement of paper PMC12637763.
The other results are listed elsewhere or left out. Env chains of viruses from a treatment-interruption trial, translated from the printed DNA. IC50 / IC80 of two broadly neutralizing antibodies; lower = more sensitive virus; >50 µg/ml means not reached and <0.001 µg/ml is below the lowest dose. No active / inactive call.

Experiments:
antibody 10-1074 [1] = assay: neutralization IC50; higher = virus less sensitive to the antibody
Experimental: (§1)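 Pseudovirus bearing the Env chain mixed with antibody, from 50 µg/ml in fivefold dilutions, on TZM-bl reporter cells, in duplicate.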

antibody 3BNC117 [2] = assay: as above
Experimental: as §1

antibody 10-1074 [3] = assay: neutralization IC80; higher = virus less sensitive to the antibody
Experimental: as §1

antibody 3BNC117 [4] = assay: as above
Experimental: as §1

Row | Binder | neutralization IC50 (antibody 10-1074 [1]) [µg/mL] | neutralization IC50 (antibody 3BNC117 [2]) [µg/mL] | neutralization IC80 (antibody 10-1074 [3]) [µg/mL] | neutralization IC80 (antibody 3BNC117 [4]) [µg/mL]
1 | HIV-1 Env, rebound clone, placebo arm (protein) MRVKGIRKSCQRLWRWGIMLLGMLMISSATEKLWVTVYYGVPVWKEANTTLFCASDAKAYDTEAHNVWATHACVPTDPNPQELDLENVTENFNMWKNGMVEQMHEDVISLWDQSLKPCVKLTPLCVTLNCTNDVNLRVNSSNSNSSINSSSSISNSSIEEKGEIKNCSFNITTSIRDKVTKEYALFYRLDIVSIKDDKSDNSNNTNTRYRLINCNTSVITQACPKVSFEPIPIHYCAPAGFAILKCKDREFNGSGTCQNVSTVQCTHGIKPVVSTQLLLNGSLAEGEVVIRSENFSDNAKTIIVQLSRPVVINCTRPNNNTRKSIHIAPGRTFYATGDIIGDIRQAHCNISKRDWNKTLKEVKGKLEKQYNKTILYNQSSGGDPEIVFHTFNCAGEFFYCNTTNLFNNNITINNGTNGTNTNENITLPCRIKQIINLWQEVGKAMYAPPIKGQIRCSSNITGLLLTRDGGLNENRTNDTVRPGGGDMRDNWRSELYRYKVVEIEPLGIAPTKAKRRVVQREKRAVGAIGAMFLGLLGAAGSTMGAASITLTVQARLVLSGIVQQQNNLLRAIEAQQHLLQLTVWGIKQLQARVLAVERYLKDQQLLGIWGCSGKLICTTSVPWNSSWSNRSLEYIWNNMTWMQWEREIDNYTGKIYTLIEEAQHKQEENELELLKLDEWSNLWNWFDISKWLWYIKIFIMIVGGLIGLRIVFAVISIVNRVRKGYSPLSFQTHFPAPRGPDRPGGTEEEGGDRDRDRSTRLVDGFLALVWDDLRSLILFLYHHLRDLLLIITRIVGLLGRRGWEILKYWSRELKLSAISLYNATAVAVAEGTDRVIEVVQRIFRGVLHVPRRIRQGLERILV | 0.013 | 0.074 | 0.05 | 0.347
2 | HIV-1 Env, rebound clone, placebo arm (protein) MRVKGIRKSCQRLWRWGIMLLGMLMISSATEKLWVTVYYGVPVWKEANTTLFCASDAKAYDTEAHNVWATHACVPTDPNPQELDLENVTENFNMWKNGMVEQMHEDVISLWDQSLKPCVKLTPLCVTLNCTNEVNLRVNSSNSNSSINSSSSISNSSIEEKGEIKNCSFNITTSIRDKVTKEYALFYRLDIVSIKDDKSDNSNNTNTRYRLINCNTSVITQACPKVSFEPIPIHYCAPAGFAILKCKDREFNGSGTCQNVSTVQCTHGIKPVVSTQLLLNGSLAEGEVVIRSENFSDNAKTIIVQLSRPVVINCTRPNNNTRKSIHIAPGRTFYATGDIIGDIRQAHCNISKRDWNKTLKEVKGKLEKQYNKTILFNQSSGGDPEIVFHTFNCAGEFFYCNTTNLFNNNITINNGTNGTNTNENITLPCRIKQIINLWQEVGKAMYAPPIKGQIRCSSNITGLLLTRDGGLNENRTNDTVRPGGGDMRDNWRSELYRYKVVEIEPLGIAPTKAKRRVVQREKRAVGAIGAMFLGLLGAAGSTMGAASITLTVQARLVLSGIVQQQNNLLRAIEAQQHLLQLTVWGIKQLQARVLAVERYLKDQQLLGIWGCSGKLICTTSVPWNSSWSNRSLEYIWNNMTWMQWEREIDNYTGKIYTLIEEAQHKQEENELELLKLDEWSNLWNWFDISKWLWYIKIFIMIVGGLIGLRIVFAVISIVNRVRKGYSPLSFQTHFPAPRGPDRPGGTEEEGGDRDRDRSTRLVDGFLALVWDDLRSLILFLYHHLRDLLLIITRIVGLLGRRGWEILKYWWNLLQYWSRELKLSAISLYNATAVAVAEGTDRVIEVVQRIFRGVLHVPRRIRQGLERILV | 0.01 | 0.07 | 0.035 | 0.259
3 | HIV-1 Env, rebound clone, placebo arm (protein) MRVKGIRKSCQRLWRWGIMLLGMLMISSATEKLWVTVYYGVPVWKEANTTLFCASDAKAYDTEAHNVWATHACVPTDPNPQELDLENVTENFNMWKNGMVEQMHEDVISLWDQSLKPCVKLTPLCVTLNCTNDVNLRVNSSNSNSSINSSSSISNSSIEEKGEIKNCSFNIATSIRDKVTKEYALFYRLDIVSIKDDKSDNSNNTNTRYRLINCNTSVITQACPKVSFEPIPIHYCAPAGFAILKCKDREFNGSGTCQNVSTVQCTHGIKPVVSTQLLLNGSLAEGEVVIRSENFSDNAKTIIVQLSRPVVINCTRPNNNTRKSIHIAPGRTFYATGDIIGDIRQAHCNISKRDWNKTLKEVKGKLEKQYNKTILFNQSSGGDPEIVFHTFNCAGEFFYCNTTNLFNNNITINNGTNGTNTNENITLPCRIKQIINLWQEVGKAMYAPPIKGQIRCSSNITGLLLTRDGGLNENRTNDTVRPGGGDMRDNWRSELYRYKVVEIEPLGIAPTKAKRRVVQREKRAVGAIGAMFLGLLGAAGSTMGAASITLTVQARLVLSGIVQQQNNLLRAIEAQQHLLQLTVWGIKQLQARVLAVERYLKDQQLLGIWGCSGKLICTTSVPWNSSWSNRSLEYIWNNMTWMQWEREIDNYTGKIYTLIEEAQHKQEENELELLKLDEWSNLWNWFDISKWLWYIKIFIMIVGGLIGLRIVFAVISIVNRVRKGYSPLSFQTHFPAPRGPDRPGGTEEEGGDRDRDRSTRLVDGFLALVWDDLRSLILFLYHHLRDLLLIITRIVGLLGRRGWEILKYWWNLLQYWSRELKLSAISLYNATAVAVAEGTDRVIEVVQRIFRGVLHVPRRIRQGLERILV | 0.015 | 0.133 | 0.045 | 0.454
4 | HIV-1 Env, rebound clone, placebo arm (protein) MRVKGIRKSCQRLWRWGIMLLGMLMISSATEKLWVTVYYGVPVWKEANTTLFCASDAKAYDTEAHNVWATHACVPTDPNPQELDLENVTENFNMWKNGMVEQMHEDVISLWDQSLKPCVKLTPLCVTLNCTNDVNLRVNSSNSNSSINSSSSISNSSIEEKGEIKNCSFNITTSIRDKVTKEYALFYRLDIVSIKDDKSDNSNNTNTRYRLINCNTSVITQACPKVSFEPIPIHYCAPAGFAILKCKDREFNGSGTCQNVSTVQCTHGIKPVVSTQLLLNGSLAEGEVVIRSENFSDNAKTIIVQLSRPVVINCTRPNNNTRKSIHIAPGRTFYATGDIIGDIRQAHCNISKRDWNKTLKEVKGKLEKQYNKTILFNQSSGGDPEIVFHTFNCAGEFFYCNTTNLFNNNITINNGTNGTNTNENITLPCRIKQIINLWQEVGKAMYAPPIKGQIRCSSNITGLLLTRDGGLNENRTNDTVRPGGGDMRDNWRSELYRYKVVKIEPLGIAPTKAKRRVVQREKRAVGAIGAMFLGLLGAAGSTMGAASITLTVQARLVLSGIVQQQNNLLRAIEAQQHLLQLTVWGIKQLQARVLAVERYLKDQQLLGIWGCSGKLICTTSVPWNSSWSNRSLEYIWNNMTWMQWEREIDNYTGKIYTLIEEAQHKQEENELELLKLDEWSNLWNWFDISKWLWYIKIFIMIVGGLIGLRIVFAVISIVNRVRKGYSPLSFQTHFPAPRGPDRPGGTEEEGGDRDRDRSTRLVDGFLALVWDDLRSLILFLYHHLRDLLLIITRIVGLLGRRGWEILKYWWNLLQYWSRELKLSAISLYNATAVAVAEGTDRVIEVVQRIFRGVLHVPRRIRQGLERILV | 0.016 | 0.076 | 0.036 | 0.23
5 | HIV-1 Env, rebound clone, placebo arm (protein) MRVKGIRKSCQRLWRWGIMLLGMLMISSATEKLWVTVYYGVPVWKEANTTLFCASDAKAYDTEAHNVWATHACVPTDPNPQELDLENVTENFNMWKNGMVEQMHEDVISLWDQSLKPCVKLTPLCVTLNCTNDVNLRVNSSNSNSSINSSSSISNSSIEEKGEIKNCSFNITTSIRDKVTKEYALFYRLDIVSIKDDKSDNSNNTNTRYRLINCNTSVITQACPKVSFEPIPIHYCAPAGFAILKCKDREFNGSGTCQNVSTVQCTHGIKPVVSTQLLLNGSLAEGEVVIRSENFSDNAKTIIVQLSRPVVINCTRPNNNTRKSIHIAPGRTFYATGDIIGDIRQAHCNISKRDWNKTLKEVKGKLEKQYNKTILFNQSSGGDPEIVFHTFNCAGEFFYCNTTNLFNNNITINNGTNGTNTNENITLPCRIKQIINLWREVGKAMYAPPIKGQIRCSSNITGLLLTRDGGLNENRTNDTVRPGGGDMRDNWRSELYRYKVVEIEPLGIAPTKAKRRVVQREKRAVGAIGAMFLGLLGAAGSTMGAASITLTVQARLVLSGIVQQQNNLLRAIEAQQHLLQLTVWGIKQLQARVLAVERYLKDQQLLGIWGCSGKLICTTSVPWNSSWSNRSLEYIWNNMTWMQWEREIDNYTGKIYTLIEEAQHKQEENELELLKLDEWSNLWNWFDISKWLWYIKIFIMIVGGLIGLRIVFAVISIVNRVRKGYSPLSFQTHFPAPRGPDRPGGTEEEGGDRDRDRSTRLVDGFLALVWDDLRSLILFLYHHLRDLLLIITRIVGLLGRRGWEILKYWWNLLQYWSRELKLSAISLYNATAVAVAEGTDRVIEVVQRIFRGVLHVPRRIRQGLERILV | 0.007 | 0.164 | 0.017 | 0.819
6 | HIV-1 Env, rebound clone, placebo arm (protein) MRVKGIRKSCQRLWRWGIMLLGMLMISSATEKLWVTVYYGVPVWKEANTTLFCASDAKAYDTEAHNVWATHACVPTDPNPQELDLENVTENFNMWKNGMVEQMHEDVISLWDQSLKPCVKLTPLCVTLNCTNDVNLRVNSSNSNSSINSSSSISNSSIEEKGEIKNCSFNITTSIRDKVTKEYALFYRLDIVSIKDDKSDNSNNTNTRYRLINCNTSVITQACPKVSFEPIPIHYCAPAGFAILKCKDREFNGSGTCQNVSTVQCTHGIKPVVSTQLLLNGSLAEGEVVIRSENFSDNAKTIIVQLSRPVVINCTRPNNNTRKSIHIAPGRTFYATGDIIGDIRQAHCNISKRDWNKTLKEVKGKLEKQYNKTILFNQSSGGDPEIVFHTFNCAGEFFYCNTTNLFNNNITINNGTNGTNTNENITLPCRIKQIINLWQEVGKAMYAPPIKGQIRCSSNITGLLLTRDGGLNENRTNDTVRPGGGDMRDNWRSELYRYKVVEIEPLGIAPTKAKRRVVQREKKAVGAIGAMFLGLLGAAGSTMGAASITLTVQARLVLSGIVQQQNNLLRAIEAQQHLLQLTVWGIKQLQARVLAVERYLKDQQLLGIWGCSGKLICTTSVPWNSSWSNRSLEYIWNNMTWMQWEREIDNYTGKIYTLIEEAQHKQEENELELLKLDEWSNLWNWFDISKWLWYIKIFIMIVGGLIGLRIVFAVISIVNRVRKGYSPLSFQTHFPAPRGPDRPGGTEEEGGDRDRDRSTRLVDGFLALVWDDLRSLILFLYHHLRDLLLIITRIVGLLGRRGWEILKYWWNLLQYWSRELKLSAISLYNATAVAVAEGTDRVIEVVQRIFRGVLHVPRRIRQGLERILV | 0.018 | 0.099 | 0.047 | 0.281
